SMILES strings stand for the structures.

This test concerns the target Human immunodeficiency virus type 1 integrase (Human immunodeficiency virus 1) (UniProt Q7ZJM1). The test is described as follows: Selectivity for HIV1 integrase strand transfer activity over 3'-end processing activity in presence of Mg2+.

For `Cc1ccc(C(=O)C2=C(O)C(=O)N(c3ncc(S(=O)(=O)c4ccc([N+](=O)[O-])cc4)s3)C2c2cccc(Cl)c2)cc1` (stereo unspecified), the Ratio IC50 is more than 10.
